Pooled drug test results. Numbers come from NIAID ChemDB, via PubChem.

Shared fields: growth or infection tests; species: Toxoplasma gondii; measure: EC50

ECn: concentration that inhibits the pathogen or its effect by n%. Neighbouring rows are from separate reports.

{"smiles": "COC(=O)C1C=CNC2=C1C(=O)c1cccc(O)c1C2=O", "value": "2.47 µg/mL"}
{"smiles": "COc1ccc(OCc2ccccc2C(=O)NC(=S)Nc2ccc(Cl)cc2Cl)cc1", "strain": "RH beta-gal", "cell line": "Human foreskin fibroblasts (HFF)", "value": "31 µM"}
{"smiles": "COc1cccc2c1C(=O)C=C(N(C)C)C2=O", "value": "0.92 µg/mL"}
{"smiles": "COc1ccc(OCc2ccccc2C(=O)NC(=S)Nc2ccc(Cl)cc2)cc1", "strain": "RH beta-gal", "cell line": "Human foreskin fibroblasts (HFF)", "value": "63 µM"}
{"smiles": "COC(=O)c1cccc2c1C(=O)c1c[nH]c(=O)cc1C2=O", "value": "1.64 µg/mL"}
{"smiles": "COc1c(N2CCNC(C)C2)c(F)cc2c(=O)c(C(=O)O)cn(C3CC3)c12", "value": "4.1 µg/mL"}
{"smiles": "O=C1C(=O)c2ccccc2C(O)=C1C1CCC(c2ccc(Cl)cc2)CC1", "strain": "RH", "value": "0.02 µM"}
{"smiles": "Cc1c2c(cc(=O)n1C)C(=O)c1cccc(O)c1C2=O", "value": "1.8 µg/mL"}
{"smiles": "COc1c(N2C[C@@H]3C(N)[C@@H]3C2)c(F)cc2c(=O)c(C(=O)O)cn(-c3ccc(F)cc3F)c12", "value": "19 µg/mL"}
{"smiles": "Cc1cc2c(o1)C(=O)C=C(Br)C2=O", "value": "0.87 µg/mL"}
{"smiles": "O=C(NC(=S)Nc1ccc(Cl)cc1)c1ccccc1COc1ccc(F)cc1", "strain": "RH beta-gal", "cell line": "Human foreskin fibroblasts (HFF)", "value": "63 µM"}
{"smiles": "CCCCCCCCCCCCCCCCC1(C)SC(=O)C(Cc2ccccc2)=C1O", "strain": "RH", "value": "2.74 µM"}
{"smiles": "Cc1cc2c(o1)C(=O)c1c[nH]c(=O)cc1C2=O", "value": "2.9 µg/mL"}
{"smiles": "CCn1cc(C(=O)O)c(=O)c2cnc(N3CCCC3)nc21", "value": "26 µg/mL"}
{"smiles": "CCCC1=C(OCCCCCCO[Si](C)(C)C(C)(C)C)C(C)SC1=O", "strain": "RH", "value": "31.9 µM"}
{"smiles": "Nc1ccc(S(=O)(=O)Nc2nccc(=O)[nH]2)cc1", "value": ">150 µg/mL"}
{"smiles": "CNC1[C@H]2CN(c3nc4c(cc3F)c(=O)c(C(=O)O)cn4-c3ccc(F)cc3F)C[C@@H]12", "value": "0.4 µg/mL"}
{"smiles": "CCCC1(C/C=C(\\C)CCC=C(C)C)C(=O)SC(C)C1=O", "strain": "RH", "value": "28.1 µM"}
{"smiles": "Cc1ccccc1NC(=S)NC(=O)c1ccccc1COc1ccc(Cl)cc1", "strain": "RH beta-gal", "cell line": "Human foreskin fibroblasts (HFF)", "value": "100 µM"}
{"smiles": "CN1CCC(c2cc(-c3ccncc3)c(-c3ccc(F)cc3)[nH]2)CC1", "strain": "TG-PKG FLAG T761Q-KO", "value": "7.932 µM"}
{"smiles": "COc1ccc(OCc2ccccc2C(=O)NC(=S)Nc2ccccc2Cl)cc1", "strain": "RH beta-gal", "cell line": "Human foreskin fibroblasts (HFF)", "value": "36 µM"}
{"smiles": "CCOc1cnc2c(c1C)C(=O)c1oc(C)cc1C2=O", "value": "0.98 µg/mL"}

Again, the opening 2 rows:

COC(=O)C1C=CNC2=C1C(=O)c1cccc(O)c1C2=O ; value: 2.47 µg/mL
COc1ccc(OCc2ccccc2C(=O)NC(=S)Nc2ccc(Cl)cc2Cl)cc1 ; strain: RH beta-gal ; cell line: Human foreskin fibroblasts (HFF) ; value: 31 µM